The text below walks through data of US20150010915.

For at least one entry, the source does not settle the construct or the ends of the probe. Tags and fusion partners may be left off the protein sequences shown.

This data set relates to T1, NanR (wild type) (Vibrio vulnificus).
T1 sequence (limits assumed): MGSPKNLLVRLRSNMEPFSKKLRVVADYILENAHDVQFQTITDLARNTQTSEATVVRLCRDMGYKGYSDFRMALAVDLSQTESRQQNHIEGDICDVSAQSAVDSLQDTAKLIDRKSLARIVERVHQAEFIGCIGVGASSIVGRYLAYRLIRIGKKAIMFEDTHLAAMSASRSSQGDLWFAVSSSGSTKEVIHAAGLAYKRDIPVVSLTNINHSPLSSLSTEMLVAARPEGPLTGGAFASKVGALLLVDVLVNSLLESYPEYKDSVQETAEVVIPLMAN
The data set can be described thus: ITC. To be noted: 50 mM Tris-HCl pH 7.0, 300 mM NaCl, 25 C, purified recombinant protein, protein details: His (pHis-Parallel1).

Turning to “GTTTGAAAAAAATCTTCGTTATGGATTATTATGGCGATGGAGATTATTTTCAAAC (double strand) [NanR-binding duplex (ITC)]”, the Kd (usually the equilibrium constant for the complex coming apart) is, setting by setting: (NanR/ManNAc-6P complex, 130-fold reduced) 186 µM; (apo-NanR dimer, 1:1 stoichiometry) 1.4 µM.
